PubChem BioAssay AID624099, ICCB-Longwood – 2012
Shown is an unselected part of about 21,000 reagents. In the full data, 497 (2.4%) were called active. 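Higher z means weaker E2 silencing; only reporter increases were scored, and knock-downs that hurt cell survival may mask genuine repressor factors.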 No sequences are given here.

Screen: 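Human genes that papillomavirus E2 requires to repress the HPV18 LCR promoter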 (primary screen)
System: human C33A cervical carcinoma cells (HPV-negative) stably expressing BPV1 E2 and an HPV18 LCR luciferase reporter
Knock-down reagent: siRNA pool against human genes, 40 nM
Time to read-out: 72 h
Measured: 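Per-well luciferase luminescence, z-scored on each plate against the plate mean and SD with control wells left out, then averaged across three replicate plates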
Scale: mean z-score and z-score: higher = stronger reporter signal, weaker E2 silencing
Rule for the call: 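Mean z ≥ 2 together with z ≥ 2 in two or more of the three replicates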

gene knocked down | PubChem SID | mean z-score | z-score, replicate A | z-score, replicate B | z-score, replicate C | Outcome
DMBX1 | SID134321414 | -0.23 | -0.11 | -0.19 | -0.39 | inactive
KRTDAP | SID134329544 | -1.23 | -1.19 | -1.47 | -1.04 | inactive
LOC653303 | SID134326586 | 0.91 | 0.91 | 0.73 | 1.08 | inactive
TRIM11 | SID134312198 | -0.95 | -1.02 | -0.96 | -0.87 | inactive
LHX2 | SID134323005 | 1.18 | 1.19 | 0.97 | 1.38 | inactive
PRM1 | SID134323468 | 0.99 | 0.9 | 1.07 | 0.99 | inactive
ACVR1 | SID56478917 | -0.31 | -0.46 | -0.58 | 0.1 | inactive
LIG1 | SID134315437 | -1.31 | -1.29 | -1.29 | -1.37 | inactive
H2AC15 | SID134315770 | -0.47 | -0.47 | -0.8 | -0.14 | inactive
HTR3C | SID134311624 | 0.25 | 0.36 | -0.04 | 0.44 | inactive
C10orf67 | SID134319752 | -0.25 | -0.52 | -0.37 | 0.13 | inactive
C10orf67 | SID134328217 | 1.22 | 1.28 | 1.23 | 1.16 | inactive
ERVFRD-2 | SID134329546 | -1.45 | -1.9 | -1.39 | -1.06 | inactive
ACOT4 | SID134313838 | 0.14 | 0.09 | 0.35 | -0.02 | inactive
FAM217B | SID134318101 | -1.42 | -1.69 | -1.85 | -0.72 | inactive
LLGL1 | SID134316192 | -0.61 | -0.36 | -0.69 | -0.8 | inactive
WDR19 | SID134320104 | -0.88 | -1.08 | -0.22 | -1.35 | inactive
SYT6 | SID134325088 | -0.83 | -0.73 | -0.63 | -1.13 | inactive
ADAMTSL4 | SID134318680 | -0.88 | -1.2 | -0.57 | -0.89 | inactive
ADAMTSL4 | SID134328890 | -0.21 | -0.41 | -0.41 | 0.2 | inactive
HNF1B | SID134314442 | -1.52 | -1.75 | -1.47 | -1.35 | inactive
DAAM1 | SID134317175 | 1.11 | 0.75 | 1.23 | 1.36 | inactive
CISD3 | SID134328781 | 1.81 | 2.12 | 1.78 | 1.52 | inactive
ORM2 | SID134315482 | -0.76 | -0.8 | -0.75 | -0.73 | inactive
PABPC4 | SID134315857 | -0.7 | -0.9 | -0.69 | -0.51 | inactive
UBE2J1 | SID134312334 | -0.73 | -0.4 | -0.94 | -0.84 | inactive
TMEM145 | SID134322087 | -0.95 | -1.23 | -0.83 | -0.8 | inactive
LAMP2 | SID134316036 | 1.62 | 1.67 | 1.6 | 1.59 | inactive
COL11A1 | SID134315941 | -0.04 | 0.1 | -0.06 | -0.15 | inactive
TMEM59L | SID134316685 | 0.54 | 0.27 | 0.57 | 0.76 | inactive
ADCY8 | SID134311928 | -0.1 | -0.47 | -0.01 | 0.19 | inactive
RFX7 | SID134318401 | -0.09 | 0.21 | -0.3 | -0.19 | inactive
FTL | SID134320215 | -1.46 | -1.66 | -1.36 | -1.37 | inactive
LOC286129 (retired record) | SID134326382 | -1.59 | -1.47 | -1.92 | -1.39 | inactive
GSTM3 | SID134321407 | 1 | 0.59 | 1.03 | 1.39 | inactive
LAT2 | SID134317790 | -1.34 | -1.33 | -1.13 | -1.55 | inactive
FGB | SID134312838 | -0.28 | -0.55 | -0.11 | -0.18 | inactive
RHCG | SID134324565 | -0.2 | 0.29 | -0.44 | -0.46 | inactive
LOC201484 (retired record) | SID134325684 | -0.67 | -0.57 | -1.06 | -0.37 | inactive
KLK12 | SID134311336 | 2.15 | 2.29 | 2.1 | 2.06 | active
USP42 | SID134311510 | -0.7 | -0.53 | -0.74 | -0.85 | inactive
ZNF684 | SID134320639 | 0.24 | 0.14 | 0.16 | 0.43 | inactive
SLCO1C1 | SID134312484 | -0.01 | 0.18 | -0.07 | -0.12 | inactive
GARIN6 | SID134319846 | -0.24 | 0.05 | -0.18 | -0.6 | inactive
OCLM (retired record) | SID134326882 | -0.06 | -0.27 | 0.22 | -0.15 | inactive
ZNF71 | SID134321082 | -0.75 | -0.29 | -0.42 | -1.54 | inactive
NDUFAB1 | SID134323655 | -1.7 | -1.78 | -1.62 | -1.68 | inactive
BCL6B | SID134322707 | -0.82 | -0.5 | -0.82 | -1.14 | inactive
ID1 | SID134310714 | -0.31 | -0.67 | -0.09 | -0.17 | inactive
KDM8 | SID134310200 | 0.16 | 0.49 | -0.06 | 0.04 | inactive
DCAF15 | SID134328987 | 0.37 | 0.62 | 0.39 | 0.1 | inactive
LYRM2 | SID134319745 | -1.21 | -1.09 | -1.06 | -1.48 | inactive
HLA-DQA2 | SID134318032 | -1.54 | -1.47 | -1.54 | -1.6 | inactive
LRRC70 | SID134321892 | 0.02 | 0.22 | -0.13 | -0.03 | inactive
CD99P1 | SID134329189 | 0.04 | 0.23 | 0.16 | -0.27 | inactive
KCTD15 | SID134318458 | 0.11 | 0.04 | 0.44 | -0.15 | inactive
ZNF225 | SID134324053 | 0.1 | 0.27 | 0.19 | -0.17 | inactive

Sorted by “z-score, replicate B” (lowest first): some entries from above.
gene knocked down | PubChem SID | mean z-score | z-score, replicate A | z-score, replicate B | z-score, replicate C | Outcome
FAM217B | SID134318101 | -1.42 | -1.69 | -1.85 | -0.72 | inactive
LLGL1 | SID134316192 | -0.61 | -0.36 | -0.69 | -0.8 | inactive
SYT6 | SID134325088 | -0.83 | -0.73 | -0.63 | -1.13 | inactive
ADAMTSL4 | SID134318680 | -0.88 | -1.2 | -0.57 | -0.89 | inactive
ADAMTSL4 | SID134328890 | -0.21 | -0.41 | -0.41 | 0.2 | inactive
WDR19 | SID134320104 | -0.88 | -1.08 | -0.22 | -1.35 | inactive
ACOT4 | SID134313838 | 0.14 | 0.09 | 0.35 | -0.02 | inactive
